Compound potency records, mixed from different reports. Data source: NIAID ChemDB in PubChem.

All rows: tests on isolated targets; organism: HIV-1; target: Protease; read by: HPLC; endpoint: IC50

An empty or dashed field is not shown. ICn: concentration for n% inhibition. Lines come from different laboratories, so protocols vary.

SMILES,conditions,value
CC(C)(C)OC(=O)N[C@@H](Cc1ccccc1)[C@H](O)CNC[C@@H](O)[C@H](Cc1ccccc1)NC(=O)[C@@H](NC(=O)OCCOCc1ccccc1)C(C)(C)C,pH 5.5,<10 µM
C[C@@H]1CC[C@]2(C(=O)O)CC[C@]3(C)C(=CC[C@@H]4[C@@]5(C)C[C@@H](O)C(=O)C(C)(C)C5CC[C@]43C)C2[C@]1(C)O,,<17.9 µg/mL
Nc1c(N=Nc2cccc([N+](=O)[O-])c2)c(S(=O)(=O)O)cc2cc(S(=O)(=O)O)c(N=Nc3ccccc3)c(O)c12,,48 µM
CC[C@H](C)[C@H](NC(=O)[C@@H]1CCCN1C(=O)[C@@H](O)[C@H](Cc1ccccc1)NC(=O)[C@H](CC(N)=O)NC(=O)CCc1ccccc1)C(=O)N[C@H](C(N)=O)C(C)C,,0.1 µM
CC(C)(C)NC(=O)[C@@H]1CSCN1C(=O)[C@@H](O)[C@H](Cc1ccccc1)NC(=O)c1ccccc1,,~5 µM
Cc1ccccc1CNC(=O)[C@H]1N(C(=O)[C@@H](O)[C@H](Cc2ccc(Cl)cc2)NC(=O)c2cccc(O)c2C)CSC1(C)C,,<0.05 µg/mL
CC(C)(C)CNC(=O)[C@@H]1CCCN1C(=O)[C@@H](O)[C@H](Cc1ccccc1)NC(=O)[C@H](CC(N)=O)NC(=O)OCc1ccccc1,,0.868 µM
CC(C)(CO)OC(=O)N[C@@H](Cc1ccccc1)[C@@H](O)C[C@@H](Cc1ccc(OCCN2CCOCC2)cc1)C(=O)N[C@H]1c2ccccc2C[C@H]1O,,~0.0025 µg/mL
Cc1ccc(C(C)(C)C)c(SC2=C(O)CC(CCc3ccc(O)cc3)(C3CCCCC3)OC2=O)c1,,0.03311 µM
C[C@@H]1CC[C@]2(C(=O)O)CC[C@]3(C)C(=CC[C@@H]4[C@@]5(C)C[C@@H](O)[C@@H](O)C(C)(C)[C@@H]5CC[C@]43C)[C@@H]2[C@]1(C)O,,>17.9 µg/mL
COc1ccc(C[C@H](NC(=O)c2cccc(O)c2C)[C@H](O)C(=O)N2CSC(C)(C)[C@H]2C(=O)NCc2cc(F)ccc2C)cc1,,<0.05 µg/mL
CC(C)c1ccccc1SC1=C(O)CC(CCC(=O)N2CCOCC2)(c2ccccc2)OC1=O,pH 4.7,2.44 µM
CC(C)C[C@H](NC(=O)[C@@H](NC(=O)CCCCCCCCCCCCCCC(=O)N[C@@H](CC(N)=O)C(=O)N[C@@H](Cc1ccccc1)C(=O)O)C(C)O)C(=O)N[C@@H](Cc1ccccc1)C(N)=O,,5.5 µM
CC(C)[C@H](NC(=O)OC(C)(C)C)C(=O)N[C@@H](Cc1ccc(OCc2ccccc2)cc1)C(=O)C(F)(F)C(=O)NCc1ccccc1,,1 µM
O=c1oc(-c2ccccc2)cc(O)c1C(CC1CC1)SC1CCCCC1,pH 6.2,0.36 µM
CC(C)(C)OC(=O)N[C@@H](Cc1ccccc1)[C@H](O)CNC[C@@H](O)[C@H](Cc1ccc(OCCO)cc1)NC(=O)OC(C)(C)C,pH 5.5,<10 µM
CC(C)(C)NC(=O)[C@@H]1CCCCN1C(=O)[C@@H](O)[C@H](Cc1ccccc1)NC(=O)[C@H](CC(N)=O)NC(=O)OCc1ccccc1,,0.182 µM
O=C(N[C@@H](Cc1ccccc1)[C@H](O)CNC[C@@H](O)[C@H](Cc1ccccc1)NC(=O)c1ccccc1)c1ccccc1,pH 5.5,>10 µM
C/C=C(/C)C(=O)O[C@H]1[C@H](O)[C@]2(COC(C)=O)[C@H](O)C[C@]3(C)C(=CC[C@@H]4[C@@]5(C)CC[C@H](O[C@@H]6O[C@H](C(=O)O)[C@@H](O[C@@H]7O[C@H](CO)[C@@H](O)[C@H](O)[C@H]7O)[C@H](O)[C@H]6O[C@@H]6O[C@H](CO)[C@@H](O)[C@H](O)[C@H]6O)[C@](C)(CO)[C@@H]5CC[C@]43C)[C@@H]2CC1(C)C,,>100 µM
CC(C)(C)c1ccccc1SC1=C(O)CC(CCc2ccccc2)(c2ccccc2)OC1=O,pH 4.7,0.0036 µM
NCCCC[C@H](N)C(=O)NC[C@H]1O[C@H](O[C@H]2[C@H](O)[C@@H](O)[C@H](N)C[C@@H]2N)[C@H](N)[C@@H](O)[C@@H]1O,,>100 µg/mL
Cc1c(N)cccc1C(=O)N[C@@H](Cc1ccccc1)[C@H](O)C(=O)N1CSC[C@H]1C(=O)NC(C)(C)C,,>5 µM
CNC(=O)C(O)(C(=O)N[C@@H](Cc1ccccc1)[C@H](O)CNC[C@@H](O)[C@H](Cc1ccccc1)NC(=O)OC(C)(C)C)C(C)(C)C,pH 5.5,<10 µM
CC(C)C[C@H](NC(=O)[C@@H](NC(=O)CCCCCCCCCCCCCCC(=O)N[C@@H](CC(N)=O)C(=O)N[C@@H](CCc1ccccc1)C(=O)O)C(C)O)C(=O)N[C@@H](Cc1ccccc1)C(N)=O,,4.4 µM
CC[C@H](C)/C=C(C)/C=C/C1=CC2=C(Cl)C(=O)[C@](C)(OC(C)=O)C(=O)C2=CO1,,62.7 µg/mL
CC(C)C[C@H](NC(=O)[C@@H](NC(=O)CCCCCCCCCCCCCCC(=O)N[C@@H](CC(N)=O)C(=O)N[C@@H](Cc1cccc2ccccc12)C(=O)O)C(C)O)C(=O)N[C@@H](Cc1ccccc1)C(N)=O,,2.9 µM
CC(C)c1ccccc1SC1=C(O)CC(CCCCC(=O)N2CCSCC2)(c2ccccc2)OC1=O,pH 4.7,0.583 µM
CC(C)(C)NC(=O)[C@@H]1CCCN1C(=O)[C@@H](O)[C@H](Cc1ccccc1)NC(=O)[C@H](CC(N)=O)NC(=O)OCc1ccccc1,,0.049 µM
CC(C)(C)OC(=O)N[C@@H](Cc1ccccc1)[C@H](O)CNC[C@H](O)[C@H](Cc1ccccc1)NC(=O)OC(C)(C)C,pH 5.5,>10 µM
CC[C@H](C)[C@H](NC(=O)[C@@H]1CCCN1C(=O)[C@H](O)[C@H](Cc1ccccc1)NC(=O)[C@H](CC(N)=O)NC(=O)CCc1ccccc1)C(=O)N[C@H](C(N)=O)C(C)C,,0.468 µM
COc1cc(O)cc2c1C(=O)C[C@@H](c1ccccc1)O2,,>100 µg/mL
CO/N=C(/C(=O)N[C@@H](Cc1ccccc1)[C@H](O)CNC[C@@H](O)[C@H](Cc1ccccc1)NC(=O)OC(C)(C)C)C(C)(C)C,pH 5.5,>10 µM
O=C(Nc1cc(S(=O)(=O)O)cc2cc(S(=O)(=O)O)c(N=Nc3cc(Nc4nc(Cl)nc(Nc5ccc(S(=O)(=O)O)cc5)n4)ccc3S(=O)(=O)O)c(O)c12)c1ccccc1,,1.3 µM
CC(C)[C@H](NC(=O)N(C)Cc1ccccn1)C(=O)N[C@@H](Cc1ccccc1)[C@H](O)[C@H](O)[C@H](Cc1ccccc1)NC(=O)[C@@H](NC(=O)N(C)Cc1ccccn1)C(C)C,,0.0023 µM
Cc1ccccc1CNC(=O)[C@H]1N(C(=O)[C@@H](O)[C@H](Cc2ccccc2)NC(=O)c2cccc(N)c2Cl)CSC1(C)C,,<0.05 µg/mL
CCCCC1(c2ccccc2)CC(O)=C(SCCc2ccccc2)C(=O)O1,pH 4.7,0.4 µM
Cc1cc(SC2=C(O)CC(C)(CCc3ccc(O)cc3)OC2=O)c(C(C)(C)C)cc1OS(=O)(=O)c1cn(C)cn1,,0.002 µM
CC(C)(C)OC(=O)N[C@@H](Cc1ccccc1)[C@@H](O)CNC[C@H](O)[C@H](Cc1ccccc1)NC(=O)OC(C)(C)C,pH 5.5,>10 µM
CC1(C)CC[C@]2(C(=O)O)CC[C@]3(C)C(=CC[C@@H]4[C@@]5(C)C[C@@H](O)[C@H](O)C(C)(C)[C@@H]5CC[C@]43C)[C@@H]2C1,,<17.9 µg/mL
Cc1ccccc1C(=O)N[C@@H](Cc1ccccc1)[C@H](O)C(=O)N1CSC[C@H]1C(=O)NC(C)(C)C,,>5 µM
O=S(=O)(O)c1cc(N=Nc2ccc(O)cc2)ccc1/C=C/c1ccc(N=Nc2ccc(O)cc2)cc1S(=O)(=O)O,,29 µM
C/C=C(\C)C(=O)O[C@H]1[C@H](O)[C@]2(COC(C)=O)[C@H](O)C[C@]3(C)C(=CC[C@@H]4[C@@]5(C)CC[C@H](O[C@@H]6O[C@H](C(=O)O)[C@@H](O[C@@H]7O[C@H](CO)[C@@H](O)[C@H](O)[C@H]7O)[C@H](O)[C@H]6O[C@@H]6O[C@H](CO)[C@@H](O)[C@H](O)[C@H]6O)[C@](C)(CO)[C@@H]5CC[C@]43C)[C@@H]2CC1(C)C,,>100 µM
Cc1cc(-c2ccc(N=Nc3ccc4c(S(=O)(=O)O)cc(S(=O)(=O)O)c(N)c4c3O)c(C)c2)ccc1N=Nc1ccc2c(S(=O)(=O)O)cc(S(=O)(=O)O)c(N)c2c1O,,0.48 µM
C/C=C(/C)C(=O)OC[C@@]12[C@H](O)C[C@]3(C)C(=CC[C@@H]4[C@@]5(C)CC[C@H](O[C@@H]6O[C@H](C(=O)O)[C@@H](O[C@@H]7O[C@H](CO)[C@@H](O)[C@H](O)[C@H]7O)[C@H](O)[C@H]6O[C@@H]6O[C@H](CO)[C@@H](O)[C@H](O)[C@H]6O)[C@](C)(CO)[C@@H]5CC[C@]43C)[C@@H]1CC(C)(C)[C@@H](O)[C@@H]2O,,>100 µM
CC(C)C[C@H](NC(=O)[C@@H](NC(=O)CCCCCCCCCCCCCCC(=O)N[C@@H](Cc1ccc(N)cc1)C(=O)N[C@@H](Cc1ccccc1)C(=O)O)C(C)O)C(=O)N[C@@H](Cc1cc(I)c(Oc2cc(I)c(O)c(I)c2)c(I)c1)C(N)=O,,0.24 µM
CC(C)(C)NC(=O)[C@@H]1CSCN1C(=O)[C@@H](O)[C@H](Cc1ccccc1)NC(=O)c1cc(O)cc(O)c1,,>5 µM
CC(C)c1ccccc1SC1=C(O)CC(CCCC(=O)N(C)c2ccccc2)(c2ccccc2)OC1=O,pH 4.7,0.624 µM
Cc1ccccc1CNC(=O)[C@H]1N(C(=O)[C@@H](O)[C@H](Cc2ccccc2)NC(=O)c2ccc(F)c(O)c2C)CSC1(C)C,,<0.05 µg/mL
CC(C)c1ccccc1SC1=C(O)CC(CCCC(N)=O)(c2ccccc2)OC1=O,pH 4.7,0.101 µM
CC(C)[C@H](NC(=O)OCc1ccccc1)C(=O)N[C@@H](Cc1ccccc1)C(O)[C@H](Cc1ccccc1)NC(=O)[C@@H](NC(=O)OCc1ccccc1)C(C)C,,0.025 µM
COc1cc(O)cc(O)c1C(=O)/C=C/c1ccccc1,,31 µg/mL
CC(C)c1ccccc1SC1=C(O)CC(CCCC(=O)NCCc2ccccc2)(c2ccccc2)OC1=O,pH 4.7,0.146 µM

Repeating the final 4 entries:

SMILES,conditions,value
CC(C)c1ccccc1SC1=C(O)CC(CCCC(N)=O)(c2ccccc2)OC1=O,pH 4.7,0.101 µM
CC(C)[C@H](NC(=O)OCc1ccccc1)C(=O)N[C@@H](Cc1ccccc1)C(O)[C@H](Cc1ccccc1)NC(=O)[C@@H](NC(=O)OCc1ccccc1)C(C)C,,0.025 µM
COc1cc(O)cc(O)c1C(=O)/C=C/c1ccccc1,,31 µg/mL
CC(C)c1ccccc1SC1=C(O)CC(CCCC(=O)NCCc2ccccc2)(c2ccccc2)OC1=O,pH 4.7,0.146 µM